Read-outs that look alike come from different tables or passages of the source. The index is printed as in the source, without its formula.
Tested on: HCV (J399E) inserted with enhanced green fluorescent protein (EGFP)
Format: cell-based, Hepatitis C Virus
Protocol: The in vitro anti-HCV activity assay of the 2′,2-bis-thiazole non-nucleoside compounds at cellular level was performed by using an anti-HCV activity assay protocol recognized by one skilled in the art.
The variation of the green fluorescence intensity was recorded on a microplate reader and cytotoxicity was measured at the same time, so as to evaluate the influence of the compound on the replication activity of HCV.
Compounds to be tested were dissolved in DMSO to prepare a stock solution before the test. Upon using, the stock solution was diluted to a desired concentration with DMEM (Dulbecco's Modified Eagle Media, purchased from GibcoBRL company (Life Technologies, Grand Island, N.Y., USA)) containing 10% FBS (fetal bovine serum, purchased from Hyclone company (Logan, Utah, USA)).
Positive control: ribavirin (purchased from Sigma/Aldrich). It was dissolved in DMSO to prepare a stock solution and stored at −20° C. before use, and diluted to a desired concentration upon using.
Huh7.5.1 cells (10% FBS, DMEM) at 10^5 cells/ml were inoculated on a 96-well plate (Costar 3904) with 100 μl per well. 24 h later, the supernatant of the culture media was sucked out, and 50 μl of virus supernatant with MOI=0.1 was added. 8 h later, 50 μl of the testing compound solution was added and 100 μl of culture media was supplemented. After incubation for 72 h, the supernatant was sucked out, and read on a fluorescent microplate reader (Ex=488 nm, Em=516 nm). Then each well was added with 20 μl of MTT (5 mg/ml) and additional 50 μl of culture media. 4 h later, 100 μl of MTT lysis solution was added. 6 h later, reading was performed at a wavelength of 570 nm.

| SMILES | SI (bioactivity selective index) (from CC50 and IC50 in Huh7.5.1 cells, SI greater than 2 means effective) | SI (bioactivity selective index) |
| --- | --- | --- |
| CC(C)Cc1sc(-c2nccs2)nc1C(N)=O [Compound C267] | >20.4 |  |
| CCC(=O)c1nc(-c2nccs2)sc1CC(C)C [Compound C280-4] |  | >11.2 |
| CNC(=O)c1nc(-c2nccs2)sc1CC(C)C [Compound C281] |  | >7.4 |
| O=C(O)c1nc(-c2nccs2)sc1Cc1ccccc1 [Compound C302] |  | 2.6 |
| CCOC(=O)/C=C/c1nc(-c2nccs2)sc1CC(C)C [Compound C322-2] |  | >10.2 |
| CCOC(=O)CCc1nc(-c2nccs2)sc1CC(C)C [Compound C324-5] |  | >2.7 |
| CC(C)Cc1sc(-c2nccs2)nc1C(=O)Nc1ccccc1 [Compound C343] |  | >5.2 |
